Measured values as given in patent US10329542B2, “HBV RNAse H purification and enzyme inhibitors” (Saint Louis University, priority 2012, dated 2019).

System: HBV proteins and β-actin in Huh7 cells
Assay: Viral and cellular protein accumulation (HBc and β-actin western, HBs ELISA)
Format: cell-based, human

## CC(C)c1ccc(O)c(=O)c(O)c1 [Compound 46, beta-thujaplicinol]
Day four post-transfection, western
  β-actin levels: unchanged
Genotype D isolate, up to 20 μM, ELISA
  HBs expression and secretion: unaffected
